# In patent US20230174946A1, “ORGAN INFECTION MODELS” (priority 2020, published 2023):
# “Also recorded” adds a separate entry of the source. Read-outs that look alike come from different tables or passages of the source.
# Columns and labels:
# [1] = system: SARS-CoV-2; type: cell-based; conditions: pre-treatment, 10 µM Hydroxychloroquine or Remdesivir, 100 units/ml IFNB1
# [2] = system: SARS-CoV-2; type: cell-based; conditions: 10 µM Hydroxychloroquine or Remdesivir, 100 units/ml IFNB1
# [3] = system: SARS-CoV-2; conditions: cited from earlier work
# [4] = system: SARS-CoV-2; type: cell-based; conditions: 10 µM Hydroxychloroquine or Remdesivir, 100 units/ml IFNB1; remark: listed apart in the source
molecule,measurement,setting,value
"IFNB1: known anti-viral cytokine; Type 1 interferon; stock provided by Dr. Jay Kolls (protein, UniProt P01574 22-187, looked up) Interferon beta: MSYNLLGFLQRSSNFQCQKLLWQLNGRLEYCLKDRMNFDIPEEIKQLQQFQKEDAALTIYEMLQNIFAIFRQDSSSTGWNETIVENLLANVYHQINHLKTVLEEKLEKEDFTRGKLMSSLHLKRYYGRILHYLKAKEYSHCAWTIVRVEILRNFYFINRLTGYLRN",effect on viral N gene RNA / viral replication in proximal ALI cultures (in words),[1],did not show a significant effect
same,effect on viral N gene RNA / viral replication in proximal ALI cultures (in words),[1]; listed as IFNB,did not have an effect on viral replication
same,reduction in viral N gene RNA/expression compared to untreated infected organoids,"[2]; human 3D alveolar organoids, added 3 hours prior to infection and maintained",3.2 log
same,effect on viral replication in alveolar organoid cultures (in words),[2]; pre-treatment,significantly reduced viral replication
same,effect on SARS-CoV-2 infection in Vero Cells,[3],reduce SARS-CoV-2 infection
same,reduction in viral N gene RNA/expression compared to untreated infected AT2 cultures,"[4]; human AT2 cultures, 3 hours prior to infection and maintained",3.2 log
same,effect on viral infection/replication in AT2 cultures (in words),[4]; pre-treatment,significant suppression viral infection; also recorded: significantly reduced viral replication
